The assay concerns the target EDIII-DV2 (Dengue virus serotype 2 (DV2)) (UniProt P14337). In words: competition ELISA, in solution at equilibrium.

One substance from patent US20200207841A1 can be followed below.

pKd: −log10 of the molar value.

Take 4E11 VL-S60W (antibody): the pKd is 8.20.
